Percent effect of library compounds

Values are the deposited “Percent Effect”, in %. How 0% and 100% were set is not recorded. Most values in the screen are low, and negative values occur. This is part of a subset picked to be rich in strong results. A dash means the value is not listed here; it may have been measured.

A: 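Phenotypic screen: M. tuberculosis growth, glucose 7H9 medium, 3 days; the read-out is not stated. Tested at 500 µM. Direction is inferred from retests: higher values go with more growth inhibition. About 18,000 compounds were tested under these conditions; 7.9% (about 1,400) showed 50% or more at least once.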
B: 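Phenotypic screen: M. tuberculosis growth, cholesterol and DPPC medium, 4 days; the read-out is not stated. Concentration: 500 µM. The record gives no direction; compounds that gave an IC50 in retests scored well above the rest, so higher reads as more growth inhibition. About 18,000 compounds were tested under these conditions; 5% (about 900) showed 50% or more at least once.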

Compound	A	B
Nc1cc(C2CCN(C(=O)Cc3ccsc3)CC2)no1	54.65	49.29
Cc1ccc(C#N)cc1NC(=O)N1CCOCC1	14.49	-
Cn1cc(CNCCNC(=O)c2cccs2)cn1	-	-2.168
CS(=O)(=O)NCC(=O)N1CCCC1C1CCCC1 (stereo unspecified)	30.43	-
CC(=O)Nc1ccccc1CN(C)Cc1ccncc1	-4.928	-
C=Cc1cccc(CN(C)CCC(=O)NC)c1	-	-0.6139
CCc1ccccc1CN	8.55	-
COC(=O)Nc1cc(OC)c(OC)cc1C(=O)OC	12.42	-
CCn1c(CN(C)CC(=O)O)nnc1[C@H]1C[C@@H](N)C1	7.247	-
CC(N)c1ccc(Br)cc1OCCCO (stereo unspecified)	-	14.44
CC(=O)c1ccc(C(=O)N(C)CC2CCCOC2)cc1 (stereo unspecified)	-	3.8
Cc1nnc(CNC(=O)COc2ccc(F)cc2F)o1	0.1211	-
CC(=O)N1CC(NC(=O)c2cc(C)cc(Br)c2)C1	4.072	-
CN(CC(F)(F)F)C(=O)CN1CCCC(CCO)C1 (stereo unspecified)	9.9	-
CC(=O)COC(=O)CC(NC(N)=O)c1ccc(Cl)cc1 (stereo unspecified)	-0.306	-
CCN(CC)C(=O)COC(=O)c1c(C)nsc1N	-11.44	-
O=C(NCCOc1ncccc1Cl)c1ccsc1	59.23	78.79
N#Cc1cccc([C@H]2C[C@H](N)C2)c1	33.13	-
CCn1c(CN2CCC(O)CC2)nnc1[C@H]1C[C@H](N)C1	8.943	-
COc1ccc(C(=O)CCN(C)C)cc1	105.3	112.6
CC(C)NCC(=O)NC(N)=O	-	-9.183
Cc1nn(-c2ccc(F)cc2)c(Cl)c1C(=O)N(C)C	26.73	-
CCCc1nnc(N2CCC3(CC2)OCC(C)O3)s1 (stereo unspecified)	90.75	88.75
Cc1ccc[nH]c1=O	-	0.2842
O=C(NCC1CCCO1)c1cccc2cccnc12 (stereo unspecified)	-11.07	-
COCCNc1ccc(OC)c(OC)c1	52.76	30.31
O=C(CCCn1cccn1)NCC1CCCCO1 (stereo unspecified)	27.13	-
COc1ccccc1C(=O)N1CC[C@H](N)C1	0.3489	-
Cc1ccc(C(=O)N2CCCC2c2cccs2)c(=O)[nH]1 (stereo unspecified)	19.7	-
O=C(NCC1(Cn2ccnc2)CC1)C1CCOC1 (stereo unspecified)	12.58	-
CCC(NCCn1cc(C)cn1)C(N)=O (stereo unspecified)	6.501	-
COc1ccc(N2CCCNCC2)cc1	76.86	46.73
NC(CO)c1c(Cl)cccc1Cl (stereo unspecified)	-	0.02032
CN(C)C(=O)c1csc(-c2ccccc2)n1	52.2	52.15
Cc1nc(NC(=O)Nc2ccc(N(C)C)nc2)oc1C	-9.212	-
COCCNc1ccc(C#N)cc1	49.74	62.16
COCCS(=O)(=O)NCCCO	-5.205	-
OCc1cc2ccccc2nc1N1CCSCC1	76.13	80.02
CS(=O)(=O)Nc1ccc(Cl)c(C(=O)N2CCOCC2)c1	8.864	-
Cc1cc(C)cc(OCC(=O)N2CCOCC2)c1	55.68	-
Cc1ccc(C(=O)NCCN)cc1F	43.54	-
Nc1nc(C2CC(N)C2)cc(N2CCC(F)CC2)n1 (stereo unspecified)	4.693	-
CNS(=O)(=O)c1ccc(C(=O)N2CCOCC2)o1	-24.09	-
CC(Sc1ncc2ccccn12)C(=O)NC(N)=O (stereo unspecified)	-3.799	-
CO[C@H]1[C@@H]2CC[C@H]1CN(C(=O)c1nc(C)c[nH]1)C2	18.93	-
NCc1nc2c(s1)CCCC2	14.55	13.72
CC(C)(C)C(=O)COc1ccccc1C(N)=O	25.54	-
CC(c1cccnc1)N(C)C(=O)c1cncc(F)c1 (stereo unspecified)	12.22	-
CC(C)c1nnc2n1CC(N)CC2 (stereo unspecified)	-6.733	-
CN1C(=O)[C@H]2CN(Cc3cccc(Br)c3)C[C@H]2C1=O	-	23.09
CC(=O)NCCNC(=O)CN1CCNC(=O)C1C (stereo unspecified)	-	-1.525
COc1ccc(CCC(=O)N(C)CC(N)=O)cc1Br	28.71	17.25
CN(C)C(CN)c1ccc(F)cc1 (stereo unspecified)	55.37	26.7
NC(=O)Cn1cc(N)cn1	-	17.49
CCN(CC)C(=O)CN(C)C(=O)CC(C)(C)C#N	-0.3042	-
CN(C)C(=O)COC(=O)c1ccc(Cl)cc1O	2.625	-
CCCN1CC(NC(=O)c2cc(C(C)C)on2)CC1=O (stereo unspecified)	24.37	3.003
COCCCNS(=O)(=O)c1ccc2c(c1)NC(=O)CS2	33.72	-
C=C(C)CNC(=O)NCCn1c(=O)oc2ccccc21	-13.1	-
COCCNC(=O)C1CC(=O)N(c2ccccc2F)C1 (stereo unspecified)	-1.448	-
Cc1ccsc1CNC(=O)Cn1cc(F)ccc1=O	3.072	-
Cc1csc(C(C)NC(=O)NCCCO)n1 (stereo unspecified)	-14.17	-
CCC(C(=O)N1CCC(N)CC1)c1ccccc1 (stereo unspecified)	65.52	-
COc1ccc(C(=O)C2CCNCC2)cc1OC	13.06	-
CN1CCOC(C(=O)Nc2ncccc2Br)C1 (stereo unspecified)	-14.45	-
NCc1csc2nccn12	-0.4396	-
CN(CCn1cccn1)C(=O)C1CC12CCNCC2 (stereo unspecified)	4.521	-

Some entries from above, unchanged:

{"compound": "O=C(NCCOc1ncccc1Cl)c1ccsc1", "A": 59.23, "B": 78.79}
{"compound": "C=C(C)CNC(=O)NCCn1c(=O)oc2ccccc21", "A": -13.1}
{"compound": "CC(=O)c1ccc(C(=O)N(C)CC2CCCOC2)cc1", "stereo": "stereo unspecified", "B": 3.8}
{"compound": "COc1ccc(N2CCCNCC2)cc1", "A": 76.86, "B": 46.73}
{"compound": "COCCNC(=O)C1CC(=O)N(c2ccccc2F)C1", "stereo": "stereo unspecified", "A": -1.448}
{"compound": "CC(N)c1ccc(Br)cc1OCCCO", "stereo": "stereo unspecified", "B": 14.44}
{"compound": "Cn1cc(CNCCNC(=O)c2cccs2)cn1", "B": -2.168}
{"compound": "COCCNc1ccc(C#N)cc1", "A": 49.74, "B": 62.16}

The values are deposited in ChEMBL (CHEMBL3988442, “University of Dundee, Small-Polar-MMV Screening Library” (2021)).